Where two headings read alike, the source gives them in different places.
B1: DH1509 (antibody, V domains shown)
VH: QVQLVESGGGVVQPGRSLRLSCAASGFTLSSHGIHWVRQAPGKGLEWVAVTSFDGRNKKFGDSVKGRFTISRDNSKNTVYLQMNSLRTEDTAVYYCAKDWGDDYSRWYFDLWGRGTLVTVSS
VL: DIQMTQSPSSLSASVGDRVTITCQASHDITKYLNWYQQKPGRAPKLLIYDASNLKTGVPSRFSGSGSGTDFTFTITSLQPEDLATYYCQQSDVLPITFGQGTRLEIK
B2: DH1498 (antibody, V domains shown)
VH: QVQLQESGPGLVKPSETLSLTCAVSGGSVSSDTYYWSWIRQPPGKGLEWIGYIYNSGSTNYNPSLKSRVTISVDTSKSQFSLNLGSVTAADTAVYYCAREGAGTYPPKNDAFDIWGQGTLVTVSS
VL: EIVLTQSPDSLAVSLGERATINCKSSQSVLFSSDNKNYLAWYQQKPGQPPKLLIYWASTRESGVPDRFSGSGSGTDFTLTISSLQAEDVAVYYCQQYYNSPRTFGQGTKVEIK

Columns and labels:
[1] = target: T1, Delta (SARS-CoV-2); assay: ELISA, coated spike, mAb titrated
T1 construct: recombinant spike

[2] = target: T1, Delta; assay: ELISA, coated spike, mAb titrated; remark: listed apart in the source

Binder	EC50 (read off the curve) [1]	EC50 (read off the curve) [2]
B1	~0.06 µg/mL	–
B2	–	~0.03 µg/mL
